According to patent US6037348A (priority 1997, dated 2000):

Tests used:
influenza A/Kawasaki/86 = test: Susceptibility of influenza A/Kawasaki/86
[1] = system: influenza virus strain A/Kawasaki/86; test: Resistance selection by passage in stepwise increases of compound, HA sequencing; settings: virus JT.A (selected with COMPOUND C)

| Structure (SMILES) | susceptibility of A/Kawasaki/86 (influenza A/Kawasaki/86) | resistance of virus JT.A [1] |
| --- | --- | --- |
| COC(=O)[C@@]1(C)CCC[C@]2(C)c3cc(OC)ccc3C(=O)C[C@@H]12 [COMPOUND A] | sensitive | – |
| COC(=O)[C@@]1(C)CCC[C@]2(C)c3cc(OC)ccc3C(=NO)C[C@@H]12 | – | crossresistant |
| O=C(O)CCC1(c2ccccc2)CCCCC1 [COMPOUND C] | – | resistant |
